From publication PMC3842668, “Dual-acting stapled peptides target both HIV-1 entry and assembly” (Retrovirology, 2013)

Test system: HIV-1 IIIB
Assay: Multi-cycle infection assay, inhibition of p24 production
Type: cell-based
Settings: SI = CC50/IC50, MT-2 cells

| Compound | SI |
| --- | --- |
| Ac-ISF-R8-QLLDYY-S5-QSGSK-amide (sidechain bridge or staple) [NYAD-46, i,i + 7 hydrocarbon-stapled peptide derived from CAI] | 1.9 |
| Ac-RSF-R8-RLLDYY-S5-ESGS-amide (sidechain bridge or staple) [NYAD-61, i,i + 7 hydrocarbon-stapled peptide derived from CAI] | 3.1 |
| Ac-ISF-R8-ELLDYY-S5-EKSGSKD-amide (sidechain bridge or staple) [NYAD-55, i,i + 7 hydrocarbon-stapled peptide derived from CAI] | >1.0 |
| Ac-SK-R8-ELLDYY-S5-ESGS-amide (sidechain bridge or staple) [NYAD-64, i,i + 7 hydrocarbon-stapled peptide derived from CAI] | >1.0 |
| Ac-RSFE-R8-LLDYYG-S5-SGS-amide (sidechain bridge or staple) [NYAD-65, i,i + 7 hydrocarbon-stapled peptide derived from CAI] | >1.0 |
| Ac-ISFDELLDYYGESGS [NYAD-41, linear control based on NYAD-36] | >1.0 |
| Ac-ISF-R8-ELLRYY-S5-R-amide (sidechain bridge or staple) [NYAD-56, i,i + 7 hydrocarbon-stapled peptide derived from CAI] | 3.4 |
| Ac-ISF-R8-EWLQYY-S5-R-amide (sidechain bridge or staple) [NYAD-33, i,i + 7 hydrocarbon-stapled peptide derived from CAI] | 2.7 |
| Ac-RRF-R8-ELLDYY-S5-ESGS-amide (sidechain bridge or staple) [NYAD-62, i,i + 7 hydrocarbon-stapled peptide derived from CAI] | 1.9 |
| IRF-R8-QLLNYY-S5-ESGS-amide (sidechain bridge or staple) [NYAD-58, i,i + 7 hydrocarbon-stapled peptide derived from CAI] | 2.1 |
| Ac-R-R8-FAELLD-S5-YGESGS-amide (sidechain bridge or staple) [NYAD-63, i,i + 7 hydrocarbon-stapled peptide derived from CAI] | >2.0 |
| Ac-ISF-R8-ELEDYY-S5-ESGS (sidechain bridge or staple) [NYAD-43, i,i + 7 hydrocarbon-stapled peptide derived from CAI] | >2.0 |
| ISF-R8-ELLNYY-S5-ESGS-amide (sidechain bridge or staple) [NYAD-57, i,i + 7 hydrocarbon-stapled peptide derived from CAI] | 4.5 |
| CC[C@H](C)[C@H](NC(C)=O)C(=O)N[C@@H](CO)C(=O)N[C@@H](Cc1ccccc1)C(=O)N[C@]1(C)CCCCCCC=CCCC[C@@](C)(C(=O)N[C@@H](CCC(=O)O)C(=O)N[C@@H](CO)C(=O)NCC(=O)N[C@@H](CO)C(N)=O)NC(=O)[C@H](Cc2ccc(O)cc2)NC(=O)[C@H](Cc2ccc(O)cc2)NC(=O)[C@H](CC(=O)O)NC(=O)[C@H](CC(C)C)NC(=O)[C@H](CC(C)C)NC(=O)[C@H](CCC(=O)O)NC1=O [NYAD-36] (Ac-ISF[R8]ELLDYY[S5]ESGS-NH2; staple 4-11) | >126 |
| CC[C@H](C)[C@H](NC(C)=O)C(=O)N[C@@H](CO)C(=O)N[C@@H](Cc1ccccc1)C(=O)N[C@]1(C)CCCCCCC=CCCC[C@@](C)(C(=O)N[C@@H](CCC(=O)O)C(=O)N[C@@H](CC(=O)O)C(N)=O)NC(=O)[C@H](Cc2ccc(O)cc2)NC(=O)[C@H](Cc2ccc(O)cc2)NC(=O)[C@H](CC(=O)O)NC(=O)[C@H](CC(C)C)NC(=O)[C@H](CC(C)C)NC(=O)[C@H](CCC(=O)O)NC1=O [NYAD-66] (Ac-ISF[R8]ELLDYY[S5]ED-NH2; staple 4-11) | >29.1 |
| Ac-ISF-R8-ELLDYY-S5-ESGSKKK-amide (sidechain bridge or staple) [NYAD-44, i,i + 7 hydrocarbon-stapled peptide derived from CAI] | 1.5 |
| Ac-IRQGPKEPFRDYVDR-NH2 [NYAD-401, reference compound] | >1.0 |
| CC[C@H](C)[C@H](NC(C)=O)C(=O)N[C@@H](CO)C(=O)N[C@@H](Cc1ccccc1)C(=O)N[C@]1(C)CCCCCCC=CCCC[C@@](C)(C(=O)N[C@@H](CCC(=O)O)C(=O)N[C@@H](CC(=O)O)C(=O)N[C@@H](CCC(=O)O)C(N)=O)NC(=O)[C@H](Cc2ccc(O)cc2)NC(=O)[C@H](C)NC(=O)[C@H](CCC(N)=O)NC(=O)[C@H](CC(C)C)NC(=O)[C@H](Cc2c[nH]c3ccccc23)NC(=O)[C@H](CCC(=O)O)NC1=O [NYAD-67] (Ac-ISF[R8]EWLQAY[S5]EDE-NH2; staple 4-11) | >27.7 |

Where a SMILES comes first, the peptide text is derived from it. Bridges are numbered along the chain shown (N, C = ends). [ ]: non-standard residue; d: D form. R8 = C=CCCCCCC[C@@](C)(N)C(=O)O; S5 = C=CCCC[C@](C)(N)C(=O)O
